# Laboratory results as given in US7541020B2, “Aminoalkyl glucosaminide phosphate compounds and their use as adjuvants and immunoeffectors” (priority 1997, dated 2009).
# Key:
# tetanus toxoid [1] = details: mouse, in vivo, sc
# tetanus toxoid [2] = details: mouse, in vivo
# For Anti-tetanus toxoid IgG1 T/C in this document: test concentration or dose not given here.
# For Anti-tetanus toxoid IgG2b Titer in this document: test concentration or dose not given here.
Substance,Anti-tetanus toxoid IgG1 T/C (tetanus toxoid [1]),Anti-tetanus toxoid IgG1 Titer (tetanus toxoid [1]),Anti-tetanus toxoid IgG2a T/C (tetanus toxoid [1]),Anti-tetanus toxoid IgG2a Titer (tetanus toxoid [1]),Anti-tetanus toxoid IgG2b T/C (tetanus toxoid [1]),Anti-tetanus toxoid IgG2b Titer (tetanus toxoid [1]),Anti-tetanus toxoid IgM T/C (tetanus toxoid [1]),Anti-tetanus toxoid IgM Titer (tetanus toxoid [1]),Anti-tetanus toxoid Total IgG T/C (tetanus toxoid [1]),Anti-tetanus toxoid Total IgG Titer (tetanus toxoid [1]),Anti-Tetanus Toxoid Titer^−1 Fecal Extract IgA (tetanus toxoid [2]),Anti-Tetanus Toxoid Titer^−1 Fecal Extract IgG (tetanus toxoid [2]),Anti-Tetanus Toxoid Titer^−1 Vaginal Wash IgA (tetanus toxoid [2])
3-Hydroxy-(R)-2-[(R)-3-tetradecanoyloxytetradecanoylamino]propyl 2-Deoxy-4-O-phosphono-2-[(R)-3-tetradecanoyloxytetradecanoylamino]-3-O-[(R)-3-tetradecanoyloxytetradecanoyl]-β-D-glucopyranoside Triethylammonium Salt [B2],2.16,"464,000",4.28,"21,700",1.57,"45,200",4.50,"7,200",3.84,"24,800",,,
3-Hydroxy-(S)-2-[(R)-3-decanoyloxytetradecanoylamino]propyl 2-Deoxy-4-O-phosphono-2-[(R)-3-decanoyloxytetradecanoylamino]-3-O-[(R)-3-decanoyloxytetradecanoyl]-β-D-glucopyranoside Triethylammonium Salt [B5],,,,,,,,,,,3200 and 6400,50 and 100,3200
3-Hydroxy-(S)-2-[(R)-3-dodecanoyloxytetradecanoylamino]propyl 2-Deoxy-4-O-phosphono-2-[(R)-3-dodecanoyloxytetradecanoylamino]-3-O-[(R)-3-dodecanoyloxytetradecanoyl]-β-D-glucopyranoside Triethylammonium Salt [B3],,,,,,,,,,,3200 and 6400,50 and 100,6400
3-Hydroxy-(S)-2-[(R)-3-tetradecanoyloxytetradecanoylamino]propyl 2-Deoxy-4-O-phosphono-2-[(R)-3-tetradecanoyloxytetradecanoylamino]-3-O-[(R)-3-tetradecanoyloxytetradecanoyl]-β-D-glucopyranoside Triethylammonium Salt [B1],3.42,"736,000",3.78,"19,200",2.45,"70,400",2.38,"3,800",3.97,"25,600",,,
3-Hydroxy-(S)-2-[(R)-3-undecanoyloxytetradecanoylamino]propyl 2-Deoxy-4-O-phosphono-2-[(R)-3-undecanoyloxytetradecanoylamino]-3-O-[(R)-3-undecanoyloxytetradecanoyl]-β-D-glucopyranoside Triethylammonium Salt [B4],,,,,,,,,,,,25 and 50,

# Several values for one entry are separate records, joined by “and”; a condition that tells them apart may be missing. Equal entries are not always repeated.
